Biological target: the molecule itself
Test: solution NMR (1H-15N HSQC, NOESY, ROESY)

## EAGPQGLPGPKGDRGEAGP [Lcl-CLR peptide (Ac-EAGPQGLPGPKGDRGEAGP-NH2)]
  stoichiometry N: 3
